A mixed list of measured activities; the numbers were collected in NIAID ChemDB.

Shared fields: whole-cell or culture tests; organism: HIV-1; cell line: CEM + CEM-SS; endpoint: fold resistance

Fold resistance has wild type as its base.

smiles	strain or isolate	mutations	method	result
Cc1occc1C(=S)Nc1ccc(Cl)c(/C=N/OC(C)(C)C)c1	NL4-3 (RT Y181C)	RT-Y181C	cytopathic effect / XTT	6.25
Cc1ccnc2c1NC(=O)c1cccnc1N2C1CC1	NL4-3	RT-Y181C	cytopathic effect / XTT	65
Cc1cn([C@H]2C[C@H](N=[N+]=[N-])[C@@H](CO)O2)c(=O)[nH]c1=O	NL4-3(RT-4XAZT)	RT-D67N K70R T215Y K219Q	cytopathic effect / XTT	800
C/C=C/CSc1cc(NC(=S)c2ccsc2C)ccc1Cl	Pyridinone-resistant (RT Y181C K103N)	RT-K103N Y181C	cytopathic effect / XTT	>10
Cc1cn([C@H]2C[C@H](N=[N+]=[N-])[C@@H](CO)O2)c(=O)[nH]c1=O	NL4-3	RT-K101E	cytopathic effect / XTT	1.33
Cc1ccnc2c1NC(=O)c1cccnc1N2C1CC1	E BPTU-resistant (RT Y181C)	RT-Y181C	cytopathic effect / XTT	190
CCCc1cc(=O)oc2c3c(c4c(c12)OC(C)(C)C=C4)O[C@H](C)[C@@H](C)[C@@H]3O	IIIB HEPT-resistant (IV)	RT-P236L	cytopathic effect / XTT	2.4
Cc1ccnc2c1NC(=O)c1cccnc1N2C1CC1	UC38-resistant (RT Y181C)	RT-Y181C	XTT	190
O=[N+]([O-])c1ccccc1S(=O)(=O)c1ccccc1	IIIB(N119(III))	RT-Y181C	cytopathic effect / XTT	>60
CCc1c(Sc2ccccn2)n(COCc2ccccc2)c(=O)[nH]c1=O	IIIB	RT-L100I	cytopathic effect / XTT	10
CCc1c(Sc2ccccn2)n(COCc2ccccc2)c(=O)[nH]c1=O	IIIB(CALO-R(II))	RT-V90I T139I P225S	cytopathic effect / XTT	1
Cc1cn([C@H]2C[C@H](N=[N+]=[N-])[C@@H](CO)O2)c(=O)[nH]c1=O	NL4-3	RT-V108I	cytopathic effect / XTT	8
CC(C)=CCN1Cc2cccc3[nH]c(=S)n(c23)C[C@@H]1C	Dihydrocostatolide-resistant (RT-L100I)	RT-L100I	XTT	117
Cc1c(Sc2ccccc2)n(COCCO)c(=O)[nH]c1=O	IIIB	RT-V90I T139I P225S	cytopathic effect / XTT	4
CCc1c(C(=O)c2cc(C)cc(C)c2)n(CC2CC=CC2)c(=O)[nH]c1=O	NL4-3	RT-A98G	cytopathic effect / XTT	0.3
c1ccc2c(c1)sc1nccn12	IIIB(TIBO-R(I))	RT-A98G V108I	cytopathic effect / XTT	>200

2 of the rows above, restated:

smiles,strain or isolate,mutations,method,result
Cc1ccnc2c1NC(=O)c1cccnc1N2C1CC1,NL4-3,RT-Y181C,cytopathic effect / XTT,65
CCc1c(Sc2ccccn2)n(COCc2ccccc2)c(=O)[nH]c1=O,IIIB(CALO-R(II)),RT-V90I T139I P225S,cytopathic effect / XTT,1

Conditions beyond the fields shown may differ between rows.